From patent publication US9211260B2, “Methods of reducing the effects of exposure to a mustard compound by administering RLIP76” (dated 2015) come the findings set out here.

This data set concerns C57bl/6 mice exposed to melphalan. In words: Survival of mice after melphalan 25.2 mg/kg (Study Design B). The conditions noted are these: melphalan IP, untreated group.

In turn, `N[C@@H](Cc1ccc(N(CCCl)CCCl)cc1)C(=O)O` registered an LD100/15 of 25.2 mg/kg.
